Laboratory results as given in patent US11584744B2 (UNIVERSITY OF WASHINGTON, priority 2017, dated 2023).

Each molecule was assayed on S. aureus (assay: Serum shift assays (MIC with and without 50% human serum)). Settings: 50% human serum vs no serum.
Type: cell-based, Staphylococcus aureus
Procedure: Serum shift assays: To assess the role of protein binding on compound susceptibility, MIC determinations were performed in triplicate in the presence and absence of 50% human serum. Serial threefold dilutions of 2× compound were generated in MHB and aliquoted onto 96 well plates with a DMSO limit of 0.5%. Bacteria were adjusted to 1*10^8 CFUs/mL in MHB, then further diluted 1:100 in MHB and 100% heat deactivated filter sterilized pooled human serum. Fifty microliters were added to each well of the corresponding plates, and the plates were incubated at 37° C. for ˜20 h. The lowest concentration causing ≥90% growth inhibition was recorded as the MIC.

SMILES	Avg Fold-shift of MIC
Fc1ccc2nc(NCCCNCc3cc(Cl)cc(Cl)c3)[nH]c2n1 [Compound 1614, [(3,5-dichlorophenyl)methyl][3-({5-fluoro-3H-imidazo[4,5-b]pyridin-2-yl}amino)propyl]amine]	17.3
Fc1ccc2nc(NCCCN[C@@H]3CCNc4c(Cl)cc(Cl)cc43)[nH]c2n1 [Compound 1717, (4R)-6,8-dichloro—N-[3-({5-fluoro-3H-imidazo[4,5-b]pyridin-2-yl}amino)propyl]-1,2,3,4-tetrahydroquinolin-4-amine, reference compound]	23.5
CCn1c(Cc2ccc(Cl)cc2Cl)cn(Cc2nc3nc(F)ccc3[nH]2)c1=O [Compound 2062, 4-[(2,4-dichlorophenyl)methyl]-3-ethyl-1-({5-fluoro-1H-imidazo[4,5-b]pyridin-2-yl}methyl)-2,3-dihydro-1H-imidazol-2-one]	208.1
CCCn1c(Cc2ccc(Cl)cc2Cl)cn(Cc2nc3ccc(F)nc3[nH]2)c1=O [Compound 2069, 4-[(2,4-dichlorophenyl)methyl]-1-({5-fluoro-1H-imidazo[4,5-b]pyridin-2-yl}methyl)-3-propyl-2,3-dihydro-1H-imidazol-2-one]	506.9
CCn1c(Cc2ccc(OC)cc2Cl)cn(Cc2nc3ccc(Cl)nc3[nH]2)c1=O [Compound 2093, 1-({5-chloro-1H-imidazo[4,5-b]pyridin-2-yl}methyl)-4-[(2-chloro-4-methoxyphenyl)methyl]-3-ethyl-2,3-dihydro-1H-imidazol-2-one]	267.9
COc1cc(Cl)c(-c2cccc3nc(Cc4nc5nc(Cl)ccc5[nH]4)cn23)cc1OC [Compound 2144, 2-({5-chloro-1H-imidazo[4,5-b]pyridin-2-yl}methyl)-5-(2-chloro-4,5-dimethoxyphenyl)imidazo[1,2-a]pyridine]	56.5
